Results as given in US11723944B2 (priority 2015, dated 2023).

Amino acid sequences for entries named in this document (tags omitted). A change or cut given only in a name is not applied to a line headed by its entry.
UniProt P0DPI0: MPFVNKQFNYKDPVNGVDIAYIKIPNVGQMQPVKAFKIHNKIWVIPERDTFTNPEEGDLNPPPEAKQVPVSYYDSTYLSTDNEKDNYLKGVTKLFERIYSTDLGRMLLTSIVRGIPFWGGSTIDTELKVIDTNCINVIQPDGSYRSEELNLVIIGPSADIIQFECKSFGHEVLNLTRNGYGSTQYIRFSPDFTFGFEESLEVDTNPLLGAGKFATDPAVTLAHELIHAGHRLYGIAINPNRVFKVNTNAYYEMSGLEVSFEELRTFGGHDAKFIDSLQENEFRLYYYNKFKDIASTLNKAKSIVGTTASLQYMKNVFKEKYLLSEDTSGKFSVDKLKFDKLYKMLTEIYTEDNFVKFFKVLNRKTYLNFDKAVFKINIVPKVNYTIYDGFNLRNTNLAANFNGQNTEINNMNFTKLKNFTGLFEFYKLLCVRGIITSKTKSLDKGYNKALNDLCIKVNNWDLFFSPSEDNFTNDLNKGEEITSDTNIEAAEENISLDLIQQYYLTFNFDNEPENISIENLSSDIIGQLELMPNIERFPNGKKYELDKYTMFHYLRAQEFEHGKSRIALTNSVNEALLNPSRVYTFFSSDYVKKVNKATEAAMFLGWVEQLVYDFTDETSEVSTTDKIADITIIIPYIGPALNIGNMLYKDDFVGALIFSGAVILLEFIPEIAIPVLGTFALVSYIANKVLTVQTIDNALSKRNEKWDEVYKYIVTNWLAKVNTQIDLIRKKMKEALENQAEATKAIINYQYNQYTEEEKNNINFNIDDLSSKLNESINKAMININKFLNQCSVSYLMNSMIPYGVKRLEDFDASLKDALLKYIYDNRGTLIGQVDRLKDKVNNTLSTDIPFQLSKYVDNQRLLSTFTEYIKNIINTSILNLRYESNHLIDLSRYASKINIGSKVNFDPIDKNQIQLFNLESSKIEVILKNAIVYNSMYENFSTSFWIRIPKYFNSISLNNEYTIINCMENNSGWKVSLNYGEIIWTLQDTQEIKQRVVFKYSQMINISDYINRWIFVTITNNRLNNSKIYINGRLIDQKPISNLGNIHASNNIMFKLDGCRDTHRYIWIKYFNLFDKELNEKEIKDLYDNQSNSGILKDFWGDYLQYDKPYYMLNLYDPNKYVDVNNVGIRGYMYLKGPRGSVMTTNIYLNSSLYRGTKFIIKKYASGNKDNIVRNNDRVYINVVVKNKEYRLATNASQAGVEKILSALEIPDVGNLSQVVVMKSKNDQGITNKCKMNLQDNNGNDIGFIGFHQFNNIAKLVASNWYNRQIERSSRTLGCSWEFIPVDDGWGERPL

Experiments:
[1] = tested on: hiPSC-derived neurons; test: Cell penetration of STP-DBCO-Cy5; conditions: 1 μM in neuronal media, 30 minutes, live imaging
[2] = biological target: BoNT/A LC (Clostridium botulinum, UniProt P0DPI0); conditions: reported peptidomimetic inhibitor from a structure-based search; cited from earlier work

| Substance | cytosolic delivery of polar cargo [1] | inhibition of BoNT LC in vitro [2] |
| --- | --- | --- |
| Cy5-DBCO-Lys(N3)-pliyIrlIrGqf | Cy5 in the cytosol |  |
| Dab(Dinitrophenol)-RWT-Dab-ML |  | low nanomolar inhibition |
